Reference: patent publication US20230374563A1, “Methods for Antimicrobial Susceptibility Testing” (MicrobeDX, Inc., priority 2017, published 2023)

Assays:
Gram negative pathogens = experiment: RiboResponse AST, predetermined concentrations (working panel 2, concentration limits); type: cell-based; conditions: for Upper Concentration Limit: highest concentration tested that provided acceptable AST assay results; for Lower Concentration Limit: lowest concentration tested that provided acceptable AST assay results
[1] = test system: microorganisms in a urine specimen; experiment: Accuracy of RiboResponse-based AST on urine specimens compared to broth microdilution; type: cell-based; conditions: RiboResponse-based AST vs broth microdilution

`NCC[C@H](O)C(=O)N[C@@H]1C[C@H](N)[C@@H](O[C@H]2O[C@H](CN)[C@@H](O)[C@H](O)[C@H]2O)[C@H](O)[C@H]1O[C@H]1O[C@H](CO)[C@@H](O)[C@H](N)[C@H]1O` [Amikacin] was tested, and the “Upper Concentration Limit” value (Gram negative pathogens) was 64 µg/mL, the “Lower Concentration Limit” value (Gram negative pathogens) was 2 µg/mL and the “Accuracy of Present Invention” value [1] was 100.0%.

For `CC1(C)S[C@@H]2[C@H](NC(=O)[C@H](N)c3ccccc3)C(=O)N2[C@H]1C(=O)O` [Ampicillin], the “Upper Concentration Limit” value (Gram negative pathogens) was 2048 µg/mL, the “Lower Concentration Limit” value (Gram negative pathogens) was 8 µg/mL and the “Accuracy of Present Invention” value [1] was 95.1%.

With `Cc1nnc(SCC2=C(C(=O)O)N3C(=O)[C@@H](NC(=O)Cn4cnnn4)[C@H]3SC2)s1` [Cefazolin] the “Accuracy of Present Invention” value [1] was 97.6%.

`CO/N=C(\C(=O)N[C@@H]1C(=O)N2C(C(=O)O)=C(CSc3nc(=O)c(=O)[nH]n3C)CS[C@H]12)c1csc(N)n1` [Ceftriaxone] was tested, and the “Upper Concentration Limit” value (Gram negative pathogens) was 128 µg/mL, the “Lower Concentration Limit” value (Gram negative pathogens) was 1 µg/mL and the “Accuracy of Present Invention” value [1] was 97.6%.

With `O=C(O)c1cn(C2CC2)c2cc(N3CCNCC3)c(F)cc2c1=O` [Ciprofloxacin] the “Upper Concentration Limit” value (Gram negative pathogens) was 8 µg/mL, the “Lower Concentration Limit” value (Gram negative pathogens) was 1 µg/mL and the “Accuracy of Present Invention” value [1] was 97.6%.

With `C[C@@H](O)[C@H]1C(=O)N2C(C(=O)O)=C(S[C@@H]3CN[C@H](C(=O)Nc4cccc(C(=O)O)c4)C3)[C@H](C)[C@H]12` [Ertapenem] the “Upper Concentration Limit” value (Gram negative pathogens) was 8 µg/mL and the “Lower Concentration Limit” value (Gram negative pathogens) was 0.5 µg/mL.

For `C[C@@H]1O[C@@H]1P(=O)(O)O` [Fosfomycin], the “Upper Concentration Limit” value (Gram negative pathogens) was 512 µg/mL and the “Lower Concentration Limit” value (Gram negative pathogens) was 4 µg/mL.

In the case of `C[C@@H](O)[C@H]1C(=O)N2C(C(=O)O)=C(S[C@@H]3CN[C@H](C(=O)N(C)C)C3)[C@H](C)[C@H]12` [Meropenem], the “Upper Concentration Limit” value (Gram negative pathogens) is reported as 8 µg/mL and the “Lower Concentration Limit” value (Gram negative pathogens) is reported as 1 µg/mL.

Gentamicin was tested, and the “Upper Concentration Limit” value (Gram negative pathogens) was 16 µg/mL, the “Lower Concentration Limit” value (Gram negative pathogens) was 2 µg/mL and the “Accuracy of Present Invention” value [1] was 100.0%.
